## Sequence variants of PSTVd loop 15 after infection

From the data files of Wu et al. 2024, doi:10.1371/journal.ppat.1012142.

The pool varies loop 15 of the PSTVd intermediate strain in the pattern GGAAACCGNNNNNNC; wild type is GGAAACCGCUACUAC (upper and lower strand joined, each 5' to 3', the first 7 letters being the upper strand, closing pairs included).

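A pool of all variants was put on leaves of three Nicotiana benthamiana plants. Progeny were sequenced from the inoculated region (day 5), the margin of the inoculated leaf (day 10) and systemic leaves (day 12).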

Numbers give reads per thousand; 0 = not seen among the reads, higher = more abundant. Each value is the mean of three plants. "Pool" is the share in the plasmid pool used as inoculum, on the same scale. The inoculated region was read from the minus strand, the other sites from the plus strand. For reference, wild type rose from 33.9 per thousand in the pool to 202, 200, 159 (inoculated region), 724, 746, 710 (leaf margin) and 856, 883, 880 (systemic leaves). Samples held 43,870 to 66,106 reads, so the smallest values rest on one or two reads. The authors trace changes outside the varied positions to PCR and sequencing errors or to mutation in the plant; presence does not show that a variant is infectious alone.

| sequence | pool | inoculated region | leaf margin | systemic leaves |
|---|---|---|---|---|
| GGAAACCGACCAAGC | 0.208 | 0.105 | 0.0141 | 0 |
| GGAAACCGACCAGUC | 0.304 | 0.124 | 0.0134 | 0.00537 |
| GGAAACCGACCGAAC | 0.352 | 0.268 | 0.0913 | 0.0689 |
| GGAAACCGACUGAGC | 0.272 | 0.0869 | 0 | 0 |
| GGAAACCGACUUAUC | 0.160 | 0.236 | 0.0267 | 0.00537 |
| GGAAACCGAGCCGUC | 0.304 | 0.101 | 0.0262 | 0 |
| GGAAACCGAGGGCAC | 0.272 | 0.0680 | 0.0128 | 0 |
| GGAAACCGAGGGUAC | 0.128 | 0.301 | 0.147 | 0.0287 |
| GGAAACCGAUACACC | 0.240 | 0.0733 | 0 | 0.00537 |
| GGAAACCGAUCCAGC | 0.208 | 0.0831 | 0.00668 | 0 |
| GGAAACCGAUCUUAC | 0.240 | 0.276 | 0.134 | 0.0616 |
| GGAAACCGAUGAUUC | 0.192 | 0.0634 | 0 | 0.00537 |
| GGAAACCGAUUCUUC | 0.256 | 0.105 | 0 | 0 |
| GGAAACCGCAAUACC | 0.176 | 0.137 | 0.0121 | 0 |
| GGAAACCGCCCAGGC | 0.208 | 0.187 | 0.0262 | 0 |
| GGAAACCGCCCAUAC | 0.0800 | 0.356 | 0.0872 | 0.0841 |
| GGAAACCGCCCGGUC | 0.288 | 0.323 | 0.107 | 0.0161 |
| GGAAACCGCCGAAAC | 0.192 | 0.295 | 0.129 | 0.0215 |
| GGAAACCGCCUAAUC | 0.240 | 0.0813 | 0.00668 | 0 |
| GGAAACCGCGCUGAC | 0.304 | 0.0828 | 0.00668 | 0 |
| GGAAACCGCGGUGAC | 0.240 | 0.102 | 0.00668 | 0 |
| GGAAACCGCGUCAGC | 0.176 | 0.123 | 0.0141 | 0 |
| GGAAACCGCUAAAUC | 0.192 | 0.213 | 0 | 0.0104 |
| GGAAACCGCUAUAUC | 0.320 | 0.587 | 0.0995 | 0.0439 |
| GGAAACCGCUCUAUC | 0.224 | 0.0877 | 0.0187 | 0.0151 |
| GGAAACCGGAGGGGC | 0.272 | 0.0761 | 0.00668 | 0 |
| GGAAACCGGCCCCAC | 0.336 | 0.107 | 0.0175 | 0 |
| GGAAACCGGCGUGGC | 0.208 | 0.115 | 0 | 0.00537 |
| GGAAACCGGCUAUAC | 0.192 | 0.0959 | 0.0134 | 0 |
| GGAAACCGGCUCUGC | 0.256 | 0.104 | 0.00668 | 0 |
| GGAAACCGGGCCCCC | 0.128 | 0.0857 | 0 | 0 |
| GGAAACCGGUCACUC | 0.304 | 0.126 | 0.0162 | 0.00537 |
| GGAAACCGGUUAAAC | 0.176 | 0.0861 | 0.0262 | 0 |
| GGAAACCGUAUCAAC | 0.288 | 0.0579 | 0.0249 | 0 |
| GGAAACCGUCCACUC | 0.128 | 0.0805 | 0.00668 | 0 |
| GGAAACCGUCCCACC | 0.256 | 0.120 | 0.00539 | 0 |
| GGAAACCGUCGCUUC | 0.192 | 0.0784 | 0.0208 | 0 |
| GGAAACCGUCGUUCC | 0.272 | 0.107 | 0 | 0 |
| GGAAACCGUGAAAAC | 0.208 | 0.309 | 0.0819 | 0.0338 |
| GGAAACCGUGAUUCC | 0.208 | 0.318 | 0.0960 | 0.0161 |
| GGAAACCGUGUUGAC | 0.192 | 0.0884 | 0.0187 | 0 |
| GGAAACCGUUCGAAC | 0.256 | 0.301 | 0.138 | 0.0433 |